Only a part is listed here, and it is no random draw. Some salts or complexes appear as unconnected parts, following the source record. The source made the active and inactive calls. No stated cut-off is given here; in the data, active means growth inhibition above about 68%; inactive means the rest.
assay: growth inhibition of ugtP-null S. aureus, primary screen, RN4220 ugtP deletion, OD600 (AID 1259309); settings: 16 h, active compounds read high;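 further: plate controls were untreated wells for no effect and antibiotic for full effect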

Compound | growth inhibition
O=P1(Nc2ccc(Br)cn2)COc2ccccc2OC1 | inactive: -8.93%
NS(=O)(=O)c1cccc(NC(=O)COC(=O)C(O)(c2ccccc2)c2ccccc2)c1 | inactive: 2.74%
Cc1ccc(OCC(=O)OC2CN3CCC2CC3)cc1 (centres undefined) | inactive: 5.36%
O=[As](O)(c1cccs1)c1cccs1 | inactive: 8.24%
Nc1cccc([As](=O)(O)c2ccccc2)c1 | inactive: 5.95%
CP(=O)(Nc1ccc(SC(F)(F)F)cc1)Oc1ccccc1 (centres undefined) | inactive: 3.25%
CCCOc1ccc(NP(C)(=O)Oc2ccc(Cl)cc2)cc1 (centres undefined) | inactive: 6.98%
O=P1(Nc2ncccn2)COc2ccccc2OC1 | inactive: 6.44%
COc1ccccc1OP(C)(=O)Nc1c(C)cccc1C (centres undefined) | inactive: -1.2%
CN1CCCCC1COC(=O)C1(O)c2ccccc2CCc2ccccc21 (centres undefined) | inactive: 2.74%
O=C(/C=C/c1ccccc1)OC1CN2CCC1CC2 (centres undefined) | inactive: 17%
CCCC1OP(=O)(Nc2ccccc2)OCC1CC (centres undefined) | inactive: 7.75%
O=[N+]([O-])c1cc([N+](=O)[O-])c(Nc2nnnn2CCO)c([N+](=O)[O-])c1 | inactive: 16.1%
CN(C)C1(CNC(=O)c2ccc(S(C)(=O)=O)cc2)CCCCC1 | inactive: 0.936%
CCOC(=O)C(CC)C1=NC(C)(C)Cc2ccccc21.O=[N+]([O-])c1cc([N+](=O)[O-])c(O)c([N+](=O)[O-])c1 (centres undefined) | inactive: -5.45%
COc1cc(C2NCCC3(OCCO3)C2(C)C)cc(OC)c1OC.O=[N+]([O-])c1cc([N+](=O)[O-])c(O)c([N+](=O)[O-])c1 (centres undefined) | inactive: 2.85%
Cc1nn(-c2ccccc2)c2c1P(=O)(N1CCOCC1)N(C)C(c1ccccc1)=N2 (centres undefined) | inactive: 4.12%
CC1CCC(C(C)C)C(OP(=O)(Nc2ccccn2)c2ccccc2)C1 (centres undefined) | inactive: -8.97%
Cc1ccc(C(=O)OC2CN3CCC2CC3)cc1 (centres undefined) | inactive: 0.174%
CP(=O)(Nc1ccccc1Br)Oc1ccccc1 (centres undefined) | inactive: -0.246%
O=[N+]([O-])c1ccc(Nc2ccc(Oc3ccc([N+](=O)[O-])cc3[N+](=O)[O-])cc2)c([N+](=O)[O-])c1 | inactive: -6.02%
O=P(Nc1ccccn1)(c1cccc2ccccc12)c1cccc2ccccc12 | inactive: -2.39%
Cc1cc(SC(NC=O)C(Cl)(Cl)Cl)ncn1 (centres undefined) | inactive: 7.49%
COc1ccccc1OP(C)(=O)Nc1ccccc1 (centres undefined) | inactive: -0.0197%
CCOC(=O)Nc1cccc([As](=O)(O)O)c1 | inactive: 17.7%
CP(=S)(Nn1cnnc1)Oc1ccccc1 (centres undefined) | inactive: 6.53%
CCCCOc1ccc(C(=O)NCC2(N3CCCCC3)CCCCC2)cc1OC | inactive: 12.8%

Compound | growth inhibition
Cc1cc(SC(NC(=O)c2ccccc2)C(Cl)(Cl)Cl)nc(C(C)C)n1 (centres undefined) | inactive: 7.04%
COc1ccc(NC(=NP(=O)(N2CCOCC2)N2CCOCC2)N2CCOCC2)cc1 | inactive: 4.28%
CC1CCNP(=O)(N(CCCl)CCCl)O1 (centres undefined) | inactive: 7.32%
CCOC(=O)Nc1ccc([As](=O)(O)O)c(O)c1 | inactive: 12.5%
CP(=O)(Nc1ccccn1)Oc1ccc(Cl)cc1 (centres undefined) | inactive: -1.73%
CCC(C)N(CC(C)C)C(=S)SC(NC(C)=O)C(Cl)(Cl)Cl (centres undefined) | inactive: 57.9%
CCOC(=O)c1ccc(NP(C)(=O)Oc2ccc(OC)cc2)cc1 (centres undefined) | inactive: -2.33%
CCOC(=O)c1ccc(NC(=O)C(C)(CCl)SC)cc1 (centres undefined) | inactive: 15.4%
O=[N+]([O-])c1cc([N+](=O)[O-])c(O)c([N+](=O)[O-])c1.c1ccc(Oc2ccncc2)cc1 | inactive: 4.24%
CCOP(C)(=S)SCC(=O)NC(C)C(=O)O (centres undefined) | inactive: 8.66%
O=C(OC1CN2CCC1CC2)c1cccc([N+](=O)[O-])c1 (centres undefined) | inactive: 10.8%
CCc1ccc(OP(C)(=O)N2CCN(c3ccc([N+](=O)[O-])cc3)CC2)cc1 (centres undefined) | inactive: 2.77%
O=C(COc1ccccc1)OC1CN2CCC1CC2 (centres undefined) | inactive: 0.268%
CP(=O)(NC(=O)Nc1ccccc1)Oc1ccccc1 (centres undefined) | inactive: 12%
O=C(Nc1ccncc1[N+](=O)[O-])c1ccc([N+](=O)[O-])cc1[N+](=O)[O-] | inactive: 20.9%
Cc1cc(C)cc(OP(C)(=O)Nc2ccc(SC(F)(F)F)cc2)c1 (centres undefined) | inactive: -11%
CC1OP(=O)(Oc2ccccc2)C(O)C(O)C1N=[N+]=[N-] (centres undefined) | inactive: -1.1%
Cc1cccc(C)c1OP(C)(=O)Nc1ccc(SC(F)(F)F)cc1 (centres undefined) | inactive: -17.2%
CP(=O)(Nc1ccc(SC(F)(F)F)cc1)Oc1ccc(Cl)cc1 (centres undefined) | inactive: -24.8%
COP1(=S)c2c(C)nn(CCC#N)c2N=C(c2ccc(F)cc2)N1C (centres undefined) | inactive: 4.85%
CP(=O)(Oc1ccccc1)OC(c1ccccc1)C(F)(F)F (centres undefined) | inactive: 6.12%
CCC(CO)(C(=O)OC1CN2CCC1CC2)c1ccccc1 (centres undefined) | inactive: 11.6%
COc1ccc2nc(NP(=O)(c3ccccc3)c3ccccc3)sc2c1 | inactive: 3.95%
COc1cc(I)ccc1[As](=O)(O)O | inactive: 7.68%
O=P1(N(CCCl)CCCl)Nc2ccccc2N1 | inactive: 2.33%
O=C(OC1CN2CCC1CC2)C12CC3CC(CC(C3)C1)C2 (centres undefined) | inactive: 5.7%
Cc1cc(=O)[nH]c(N[N+](=O)[O-])n1 | inactive: 7.2%

Compound | growth inhibition
CCN(CC)CCCOC(=O)C(O)(c1ccccc1)c1ccccc1 | inactive: 6.76%
Cc1c2c(nc3ccccc13)SC(C(Cl)Cl)C2 (centres undefined) | inactive: -11.6%
Cc1cc(C)cc(OP(C)(N)=O)c1 (centres undefined) | inactive: 1.14%
CCN(CC)C(=S)SC(NC=O)C(Cl)(Cl)Cl (centres undefined) | inactive: 0.462%
O=C(OC1CN2CCC1CC2)c1cccc2[nH]cnc12 (centres undefined) | inactive: 3.57%
COc1ccccc1OP(C)(=O)Nc1cc(Cl)ccc1C (centres undefined) | inactive: -2.15%
CC(C)NC(=O)NP(=O)(Oc1ccccc1)Oc1ccccc1 | inactive: 1.05%
COc1ccc(OP(C)(=O)Nc2cccc(F)c2)cc1 (centres undefined) | inactive: 14.1%
COc1ccccc1OP(C)(=O)Nc1ccc(C)cc1 (centres undefined) | inactive: 3.57%
Cc1ccc(NP(C)(=O)Oc2ccccc2)c(C)c1 (centres undefined) | inactive: 1.03%
CC(C)c1ccc(OP(=O)(Nc2ccccn2)Oc2ccccc2F)cc1 (centres undefined) | inactive: -20.3%
CCOC(=O)c1ccc(NP(C)(=O)Oc2ccccc2)cc1 (centres undefined) | inactive: 2.26%
COc1ccc2c(c1O)-c1c(O)c(OC)cc3c1C(C2)[N+](C)(C)CC3.O=[N+]([O-])c1cc([N+](=O)[O-])c([O-])c([N+](=O)[O-])c1[O-] (centres undefined) | inactive: 0.968%
ClCCSc1nnc(-c2cccnc2)o1 | inactive: -0.467%
Cc1ccc2nc3c(c(C)c2c1)CC(C(Cl)Cl)S3 (centres undefined) | inactive: 11.2%
O=[N+]([O-])c1ccc2c(c1)C=Nc1ccccc1O2 | inactive: -4.65%
CC(C)(C)c1ccc(OP(C)(=O)Nc2ccc(SC(F)(F)F)cc2)cc1 (centres undefined) | inactive: -7.97%
Cc1ccc(OP(=O)(Nc2ccc([N+](=O)[O-])cn2)Oc2ccc(C)cc2)cc1 | inactive: 2.76%
Cc1cccc(C)c1OP(C)(N)=O (centres undefined) | inactive: 1.53%
C[As](=O)(O)c1cccc(C(=O)O)c1 | inactive: -2.4%
O=[As](O)(c1ccc(O)cc1)c1ccccc1O | inactive: 6.32%
COc1cc(C(=O)NCC2(N3CCOCC3)CCCCC2)ccc1OCC(C)C | inactive: 7.49%
O=[N+]([O-])c1ccc(-c2cc([N+](=O)[O-])c(O)c([N+](=O)[O-])c2)cc1 | inactive: 9%
CCCC(C)(O)C1CC23C=CC1(OC)C1Oc4c(O)ccc5c4[C@@]12CCN(C)[C@@H]3C5 (some centres undefined) | inactive: 7.85%
O=[N+]([O-])c1cc([N+](=O)[O-])c(Nc2cccnc2)c([N+](=O)[O-])c1 | active: 97.5%

— PubChem BioAssay AID1259309 (ICCB-Longwood Screening Facility, Harvard Medical School, 2017)
